A mixed list of measured activities; the numbers were collected in NIAID ChemDB.

All rows: growth or infection tests; organism: HIV-1; endpoint: fold resistance

Lines come from different laboratories, so protocols vary.

structure	changes	strain	cell line	setting	result
CC(C)(C)C(=O)c1sc(C(=O)NCCc2ccccc2)c(O)c1O	INTG-N155S				1
c1cc(CN2CCCNCCNCCCNCC2)ccc1CN1CCCNCCNCCCNCC1	L-CA resistant	NL4-3	MT-4		2
Nc1ccn([C@@H]2CC[C@H](CO)O2)c(=O)n1	RT-D67N K70R T215F K219Q	RTMC (RT D67N K70R T215F K219Q)	HT4 + HT4 LacZ-1		0.8
CC(C)(C)NC(=O)[C@@H]1C[C@@H]2CCCC[C@@H]2CN1C[C@@H](O)[C@H](Cc1ccccc1)NC(=O)[C@H](CC(N)=O)NC(=O)c1ccc2ccccc2n1	PR-G48V A71T V82A	RF	MT-2		8.95
Nc1ccn([C@H]2CC[C@@H](CO)O2)c(=O)n1	ddI-resistant	Clinical isolate	MT-4	clinical isolate	1.625
O=C(O)P(=O)(O)O	TAM1 (M41L D67N L210W T215Y)	HXB2	MT-2		0.5
Nc1nc2c(ncn2[C@H]2CO[C@@H](CO)O2)c(=O)[nH]1	RT-V106A G190A	RT-106A 190A			0.25
Cc1ccnc2c1NC(=O)c1cccnc1N2C1CC1	RT-A98G K103R Y181C	BCF01	PBMC		150
CC(C)(C)C(=O)c1sc(C(=O)NCc2ccccc2)c(O)c1O	INTG-S153 N155S				2
CC(C)=CCN1Cc2cc(Cl)cc3[nH]c(=S)n(c23)C[C@@H]1C	RT-A98G V106I Y181C	BCF07	PBMC		>312.5
Nc1nc(=O)n([C@@H]2CS[C@H](CO)O2)cc1F	RT-M184V	184V (RT-M184V)	HT4 + HT4 LacZ-1		>1250
Nc1nc(N)c2ncn([C@H]3CO[C@@H](CO)O3)c2n1	RT-M41L K70R T215Y K219Q		MT-2		1.94
O=C1O[C@H]2[C@@H]3OC(=O)c4cc(O)c(O)c(O)c4-c4c(cc(O)c(O)c4O)C(=O)OC[C@H]2O[C@@H](OC(=O)c2cc(O)c(O)c(O)c2)[C@@H]3OC(=O)c2cc(O)c(O)c3c2[C@@H]2C1=CC(=O)[C@](O)(O3)C2(O)O	RT-M184V	NRTI resistant (RT M184V) ARP145	MAGI		1.28
Nc1nc2c(ncn2[C@H]2CO[C@@H](CO)O2)c(=O)[nH]1	RT-M41L D67N M184V L210W T215Y				~1.8
O=c1[nH]cnc2c1ncn2[C@H]1CC[C@@H](CO)O1	RT A62V T69SS insertion K70R T215Y	RT-62V 69[SS] 70R 215Y			1.2
O=C1Nc2ccc(Cl)cc2[C@@](C#CC2CC2)(C(F)(F)F)N1	RT-K103N V108I				19
O=C(NCc1ccc(F)cc1)c1nc(N2CCCCS2(=O)=O)c2cccnc2c1O	INTG-T66I N155S				190
COc1ccc(S(=O)(=O)N(CC(C)C)C[C@@H](O)[C@H](Cc2ccccc2)NC(=O)O[C@H]2CO[C@H]3OCC(F)(F)[C@H]32)cc1	L10F M46I I54V V82A LPV resistant	NL4-3	MT-4		66
CC(C)=CCN1c2cc(Cl)cc3[nH]c(=S)n(c23)C[C@@H]1C	RT-K70R		MT-4		1
CC(C)CN(C[C@@H](O)[C@H](Cc1ccccc1)NC(=O)O[C@H]1CCOC1)S(=O)(=O)c1ccc(N)cc1	L10F M46I I54V V82A LPV resistant	NL4-3	MT-4		1
CCc1cc([C@](C#CC2CC2)(OCc2ccccc2)C(F)(F)F)c(=O)[nH]c1C	RT-K103N V108I				26.2
Nc1ccn([C@H]2CC[C@@H](CO)O2)c(=O)n1	RT-A98G K103R	BCF06	PBMC		1.07

The last 2 rows once more:

structure,changes,strain,cell line,setting,result
CCc1cc([C@](C#CC2CC2)(OCc2ccccc2)C(F)(F)F)c(=O)[nH]c1C,RT-K103N V108I,,,,26.2
Nc1ccn([C@H]2CC[C@@H](CO)O2)c(=O)n1,RT-A98G K103R,BCF06,PBMC,,1.07

Fold resistance has wild type as its base. An empty or dashed field is not shown.